Test results from PMC13507078.
Construct, isoform or probe ends are uncertain for at least one entry. For some of these results: Negatives hold for the conditions tested. At least one verdict rests on a figure or table, not on a statement of the authors. For some of these results: Protein sequences can lack the tags named with them. For some of these results: A weaker result is weaker than the reference pair of the same experiment.

Legend:
Assay in all cases: EMSA
[1] = system: Bd-PARP1 WT (Batrachochytrium dendrobatidis JEL423); settings: profile closely resembles Af-PARP1 WT; 5'-phosphate; EMSA: 50 mM HEPES pH 8, 100 mM NaCl, 10% glycerol, 10 mM DTT, 45 min at 4 °C, 7% native PAGE 0.5x TBE; recombinant protein; protein details: His; folded or branched DNA
[2] = molecular target: T1, Af-PARP1 ΔBRCT (Aspergillus fumigatus) (UniProt B0Y3N8); settings: EMSA: 50 mM HEPES pH 8, 100 mM NaCl, 10% glycerol, 10 mM DTT, 45 min at 4 °C, 7% native PAGE 0.5x TBE, recombinant protein
T1 sequence (looked up, limits assumed): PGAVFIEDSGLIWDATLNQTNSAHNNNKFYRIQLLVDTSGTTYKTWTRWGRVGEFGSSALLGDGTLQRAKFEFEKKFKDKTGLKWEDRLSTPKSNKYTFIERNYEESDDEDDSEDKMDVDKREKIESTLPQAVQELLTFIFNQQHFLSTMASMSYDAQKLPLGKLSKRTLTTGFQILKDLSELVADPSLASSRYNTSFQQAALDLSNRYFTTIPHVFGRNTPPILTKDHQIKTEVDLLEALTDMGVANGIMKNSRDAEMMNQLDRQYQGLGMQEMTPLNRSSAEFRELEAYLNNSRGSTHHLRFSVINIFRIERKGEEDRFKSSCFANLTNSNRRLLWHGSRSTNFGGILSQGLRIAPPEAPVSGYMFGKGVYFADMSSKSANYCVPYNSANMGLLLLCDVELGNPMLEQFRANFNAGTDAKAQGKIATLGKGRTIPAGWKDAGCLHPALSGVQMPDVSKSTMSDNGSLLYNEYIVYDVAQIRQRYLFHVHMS

[3] = system: Bd-PARP1 ΔBRCT (Batrachochytrium dendrobatidis JEL423); settings: 5'-phosphate, EMSA: 50 mM HEPES pH 8, 100 mM NaCl, 10% glycerol, 10 mM DTT, 45 min at 4 °C, 7% native PAGE 0.5x TBE, recombinant protein, protein details: His, folded or branched DNA
[4] = 3'-phosphate, folded or branched …
[5] = 5'-phosphate, folded or branched …

Question: Does “CGGTCGATCGTAAGATCGACCGGCGCTGGAGCTTGCTCCAGCGC [DNA-1 (5'P nick)]” bind [1]?
Answer: binds

Question: Does “CGGTCGATCGTAAGATCGACCGGCGCTGGAGCTTGCTCCAGCGC [DNA-11 (nick)]” bind ([2]; clear shift only with DNA-1, folded or branched DNA)?
Answer: no binding

Question: Does “CGGTCGATCGTAAGATCGACCGGCGCTGGAGCTTGCTCCAGCGC [DNA-12 (3'P nick)]” bind ([2]; clear shift only with DNA-1, 3'-phosphate, folded or branched …)?
Answer: no binding

Question: Does “CGGTCGATCGTAAGATCGACCGTGCGCTGGAGCTTGCTCCAGCGC [DNA-2 (5'P gap)]” bind ([3]; markedly reduced for gap structures)?
Answer: binds more weakly

Question: Does “CGGTCGATCGTAAGATCGACCGTGCGCTGGAGCTTGCTCCAGCGC [DNA-2 (5'P gap)]” bind [1]?
Answer: binds

Question: Does “CGGTCGATCGTAAGATCGACCGTGCGCTGGAGCTTGCTCCAGCGC [DNA-3 (3'P gap)]” bind [2, 4]?
Answer: no binding

Question: Does “CGGTCGATCGTAAGATCGACCGTGCGCTGGAGCTTGCTCCAGCGC [DNA-13 (gap)]” bind ([2]; folded or branched DNA)?
Answer: no binding

Question: Does “GCTAGGAAGTTCTTTTGAACTTCC [DNA-8 (5' overhang)]” bind ([2]; folded or branched DNA)?
Answer: no binding

Question: Does “GCTAGGAAGTTCTTTTGAACTTCC [DNA-10 (3'P 5' overhang)]” bind [2, 4]?
Answer: no binding

Question: Does GGAAGTTCTTTTGAACTTCC [DNA-4 (blunt)] bind ([2]; folded or branched DNA)?
Answer: no binding

Question: Does “GGAAGTTCTTTTGAACTTCC [DNA-5 (5'P blunt)]” bind [2, 5]?
Answer: no binding

Question: Does “GGAAGTTCTTTTGAACTTCC [DNA-5 (5'P blunt)]” bind ([3]; markedly reduced for blunt ends)?
Answer: binds more weakly

Question: Does “GGAAGTTCTTTTGAACTTCC [DNA-6 (3'P blunt)]” bind [2, 4]?
Answer: no binding

Question: Does “GGAAGTTCTTTTGAACTTCCTTGG [DNA-7 (3' overhang)]” bind ([2]; folded or branched DNA)?
Answer: no binding

Question: Does “GGAAGTTCTTTTGAACTTCCTTGG [DNA-9 (5'P 3' overhang)]” bind [2, 5]?
Answer: no binding

Question: Does “GGAAGTTCTTTTGAACTTCCTTGG [DNA-9 (5'P 3' overhang)]” bind ([3]; markedly reduced for overhangs)?
Answer: binds more weakly
